Pooled drug test results. Numbers come from NIAID ChemDB, via PubChem.

All rows: tests on isolated targets; organism: HIV-1; protein: Reverse transcriptase

Lines come from different laboratories, so protocols vary. Fold resistance: result on the changed form divided by that on wild type. ICn is the concentration giving n% inhibition. Two numbers with a dash give a range or band. Inhibition is in % at the dose shown (toxicity tests: loss of growth or viability). Blank or dashed fields: not listed here.

SMILES,dose,endpoint,read by,mutations,strain,result
Cc1cc(C)cc(S(=O)(=O)c2c(C(=O)NCC(N)=O)[nH]c3ccc(Cl)c(F)c23)c1,-,Ki,RT activity / nucleotide incorporation,L100I,-,0.55 µM
CCc1cc(NCc2nc3c(C)ccc(C)c3o2)c(=O)[nH]c1C,-,fold resistance,nucleotide incorporation,RT-K103N Y188C,-,70.7
CCN1C(=O)c2ccnnc2Oc2ccc(OC)cc21,330 µM,inhibition,ELISA,-,-,56%
CCN1c2ncc(CCOc3ccc(C(=O)O)c4c3CCN(C(=O)N(C)C)C4)cc2C(=O)N(C)c2cccnc21,-,fold resistance,nucleotide incorporation / radiometric,RT-Y188L,-,1–10
C=Cc1cc(N(CCC)CCC)nc(S(C)(=O)=O)n1,-,Ki,nucleotide incorporation / radiometric,RT-K103N,-,>400 µM
CN(C)CCCC(=O)NC(C)(C)C#Cc1ccc(NC(=O)CSc2nnnn2-c2cc(C(F)(F)F)ccc2Cl)c(Cl)c1F,-,IC50,PicoGreen / fluorescence,RT-K103 Y181C,-,<1 µM
COc1cccc(-c2nnc3c4ccccc4c(N4CCc5ccccc5C4)nn23)c1,-,IC90,RT activity / fluorescence,-,98US_MSC5016,>100 µM
CCN1c2ncc(CCOc3ccc(C(=O)O)c4ccccc34)cc2C(=O)Nc2c(C)ccnc21,-,fold resistance,nucleotide incorporation / radiometric,RT-Y188L,-,>10
COc1ccc2c(c1)N(CCCCl)C(=O)c1ccnnc1O2,33 µM,inhibition,ELISA,-,-,27%
CC(C)(C)c1ccc(-n2nnnc2SCC(=O)Nc2ccc(OCC(=O)NCC(=O)O)cc2Cl)c(Cl)c1,-,IC50,PicoGreen / fluorescence,-,WT,<1 µM
O=c1cc(Cc2ccccc2)nc(SCCCCO)[nH]1,-,Ki,-,-,-,100 µM
c1ccc2c(c1)CCN(c1nn3c(C4CC4)nnc3c3ccccc13)C2,-,IC90,RT activity / fluorescence,-,IIIB,2.68 µM
CCN1c2ncc(CCOc3ccc(/C=C(\C)C(=O)O)c4ccccc34)cc2C(=O)N(C)c2ccc(F)nc21,-,fold resistance,nucleotide incorporation / radiometric,RT-Y188L,-,>10
O=C1NC(c2c[nH]c3ccc(O)cc23)=C/C1=C1\C(=O)NC2C=CC=CC12,300 µM,inhibition,RT activity / ELISA,-,-,61.95%
CCOC(=O)CN1C(=O)c2cc(Cl)nnc2Oc2ccccc21,330 µM,inhibition,ELISA,-,-,35%
O=c1cc(Cc2ccccc2)nc(NCCCCO)[nH]1,-,Ki,-,RT-L100I,-,525 µM
CCCN1C(=O)c2ccnnc2Oc2ccc(C(F)(F)F)cc21,33 µM,inhibition,ELISA,-,-,2%
CC(C)(C)c1ccc(-n2nnnc2SCC(=O)Nc2ccc(OCC(=O)NCCO)cc2Cl)c(Cl)c1,-,IC50,PicoGreen / fluorescence,RT-K103 Y181C,-,<1 µM
CCN1c2ncc(CCOc3ccc(CC(=O)O)c4c3CCCC4)cc2C(=O)N(C)c2ccc(F)nc21,-,fold resistance,nucleotide incorporation / radiometric,RT-Y188L,-,>10
CC(C)(C)c1ccc(-n2nnnc2SCC(=O)Nc2ccc(OCC(=O)Nc3nc(C(=O)O)cs3)cc2Cl)c(Cl)c1,-,IC50,PicoGreen / fluorescence,-,WT,<1 µM
CCN1c2ncc(CCOc3ccc(-c4ccc(CCC(=O)O)o4)cc3C)cc2C(=O)N(C)c2cccnc21,-,IC50,nucleotide incorporation / radiometric,RT-K103N Y181C,IIIB,>0.1 µM
N#Cc1ccc2c(c1)CN(c1nn3c(C4CC4)nnc3c3ccccc13)CC2,-,IC90,RT activity / fluorescence,-,IIIB,3 µM
NCCCCNc1nc(Cc2ccccc2)cc(=O)[nH]1,-,Ki,-,-,-,70 µM
CCN1c2ncc(CCOc3ccc(Nc4ccc(C(=O)O)cn4)cc3C)cc2C(=O)N(C)c2cccnc21,-,IC50,nucleotide incorporation / radiometric,RT-K103N Y181C,IIIB,<0.05 µM
CC(C)(C)c1ccc(-n2nnnc2SCC(=O)Nc2ccc(NC(=O)Cc3ccccc3[N+](=O)[O-])cc2Cl)c(Cl)c1,-,IC50,PicoGreen / fluorescence,RT-K103 Y181C,-,<1 µM
COc1ccc(OC)c(C/C=C(\C)CC/C=C(\C)CC/C=C(\C)CC/C=C(\C)CC/C=C(\C)CCC=C(C)C)c1,-,IC90,nucleotide incorporation,-,-,64.5 µM
O=C(CSc1nnnn1-c1ccc(C2CC2)cc1Cl)Nc1ccc(-c2ccc(OCCN3CCCCC3)cc2)cc1Cl,-,IC50,PicoGreen / fluorescence,RT-K103 Y181C,-,<1 µM
CCN1c2ncc(CCOc3ccc(CCC(=O)O)c4ccccc34)cc2C(=O)Nc2c(C)cc(Cl)nc21,-,fold resistance,nucleotide incorporation / radiometric,RT-Y188L,-,>10
CC(C)(C#Cc1ccc(NC(=O)CSc2nnnn2-c2ccc(C3CC3)cc2Cl)c(Cl)c1)NCC(N)=O,-,IC50,PicoGreen / fluorescence,-,WT,<1 µM
CCN1c2ncc(CCOc3ccc(-c4cc(C(=O)O)c[n+]([O-])c4)cc3C)cc2C(=O)N(C)c2cccnc21,-,IC50,nucleotide incorporation / radiometric,RT-K103N Y181C,IIIB,<0.05 µM
C=Cc1nc(SC)nc(N(C)C)c1Cl,-,Ki,nucleotide incorporation / radiometric,-,-,90 µM
CC(C)(C)c1ccc(-n2nnnc2SCC(=O)Nc2ccc(NC(=O)Cc3ccncc3)cc2Cl)c(Cl)c1,-,IC50,PicoGreen / fluorescence,RT-K103 Y181C,-,<1 µM
COc1cc2c(cc1[N+](=O)[O-])CN(c1nn3c(C4CC4)nnc3c3ccccc13)CC2,-,IC90,RT activity / fluorescence,-,IIIB,78.8 µM
Cc1cc(NC(=O)COc2ccc(NC(=O)CSc3nnnn3-c3ccc(C(C)(C)C)cc3Cl)c(Cl)c2)no1,-,IC50,PicoGreen / fluorescence,-,WT,<1 µM
Nc1cc2c(c(N3CCCC3)c1)CCN(c1nn3c(C4CC4)nnc3c3ccccc13)C2,-,IC50,RT activity / fluorescence,-,IIIB,8.06 µM
Cc1ccc(-n2nnnc2SCC(=O)Nc2ccc(-c3cscn3)cc2Cl)c(Cl)c1,-,IC50,PicoGreen / fluorescence,-,WT,<1 µM
CCN1c2ncc(CCOc3ccc(CC(C)C(=O)O)c4ccccc34)cc2C(=O)N(C)c2ccc(C)nc21,-,fold resistance,nucleotide incorporation / radiometric,RT-Y188L,-,>10
CC(C)(C)c1ccc(-n2nnnc2SCC(=O)Nc2ccc(C(=O)NCc3ccc(O)c(O)c3)cc2Cl)c(Cl)c1,-,IC50,PicoGreen / fluorescence,RT-K103 Y181C,-,<1 µM
CCN1c2ncc(CCOc3ccc(-c4ccc(N)nc4C)cc3C)cc2C(=O)N(C)c2cccnc21,-,IC50,nucleotide incorporation / radiometric,RT-K103N Y181C,IIIB,<0.05 µM
CC(C)(C)c1ccc(-n2nnnc2SCC(=O)Nc2ccc(NC(=O)Cc3ccc[n+]([O-])c3)cc2Cl)c(Cl)c1,-,IC50,PicoGreen / fluorescence,RT-K103 Y181C,-,<1 µM
Cc1cc(C)cc(S(=O)(=O)c2c(C(=O)NCCn3cccc3)[nH]c3ccc(Cl)c(F)c23)c1,-,Ki,RT activity / nucleotide incorporation,Y181C,-,3.7 µM
CC(C)(C#Cc1ccc(NC(=O)CSc2nnnn2-c2ccc(C3CC3)cc2Cl)c(Cl)c1)OCCNC1CC1,-,IC50,PicoGreen / fluorescence,RT-K103 Y181C,-,<1 µM
Cc1nnc2ccc(N3CCc4ccccc4C3)nn12,-,IC90,RT activity / fluorescence,-,KER2008,25.9 µM
CC(C)(O)C#Cc1ccc(NC(=O)CSc2nnnn2-c2cc(C#N)ccc2Cl)c(Cl)c1,-,IC50,PicoGreen / fluorescence,RT-K103 Y181C,-,<1 µM
CS(=O)(=O)Nc1ccc2c(c1)CN(c1nn3c(C4CC4)nnc3c3ccccc13)CC2,-,IC90,RT activity / fluorescence,-,KER2008,1.28 µM
CC(C)(C#Cc1ccc(NC(=O)CSc2nnnn2-c2ccc(C3CC3)cc2Cl)c(Cl)c1)C(=O)NCC1CCCO1,-,IC50,PicoGreen / fluorescence,RT-K103 Y181C,-,<1 µM
CCN1c2ncc(CCOc3ccc(C(=O)NC(C)(C)CC(=O)O)cc3C)cc2C(=O)N(C)c2cccnc21,-,IC50,nucleotide incorporation / radiometric,RT-K103N Y181C,IIIB,>0.1 µM
CC(C)(C#Cc1ccc(NC(=O)CSc2nnnn2-c2ccc(C3CC3)cc2Cl)c(Cl)c1)NC(=O)c1cc[n+]([O-])cc1,-,IC50,PicoGreen / fluorescence,RT-K103 Y181C,-,<1 µM
Cc1cc(-c2ccc[n+]([O-])c2)ccc1OCCc1cnc2c(c1)C(=O)N(C)c1cccnc1N2C1CC1,-,IC50,nucleotide incorporation / radiometric,-,IIIB,<0.05 µM

A second listing of 7 rows from above:

SMILES,dose,endpoint,read by,mutations,strain,result
CCN1c2ncc(CCOc3ccc(CCC(=O)O)c4ccccc34)cc2C(=O)Nc2c(C)cc(Cl)nc21,-,fold resistance,nucleotide incorporation / radiometric,RT-Y188L,-,>10
CC(C)(C#Cc1ccc(NC(=O)CSc2nnnn2-c2ccc(C3CC3)cc2Cl)c(Cl)c1)C(=O)NCC1CCCO1,-,IC50,PicoGreen / fluorescence,RT-K103 Y181C,-,<1 µM
CC(C)(C)c1ccc(-n2nnnc2SCC(=O)Nc2ccc(OCC(=O)NCCO)cc2Cl)c(Cl)c1,-,IC50,PicoGreen / fluorescence,RT-K103 Y181C,-,<1 µM
O=C(CSc1nnnn1-c1ccc(C2CC2)cc1Cl)Nc1ccc(-c2ccc(OCCN3CCCCC3)cc2)cc1Cl,-,IC50,PicoGreen / fluorescence,RT-K103 Y181C,-,<1 µM
N#Cc1ccc2c(c1)CN(c1nn3c(C4CC4)nnc3c3ccccc13)CC2,-,IC90,RT activity / fluorescence,-,IIIB,3 µM
CCN1c2ncc(CCOc3ccc(-c4ccc(N)nc4C)cc3C)cc2C(=O)N(C)c2cccnc21,-,IC50,nucleotide incorporation / radiometric,RT-K103N Y181C,IIIB,<0.05 µM
CCN1C(=O)c2ccnnc2Oc2ccc(OC)cc21,330 µM,inhibition,ELISA,-,-,56%